{
  "source": "patent US20240122867A1",
  "about": "“CORONAL PROTEIN-COATED NANOPARTICLES AND USES THEREOF” (UNIVERSITY OF CENTRAL FLORIDA RESEARCH FOUNDATION, INC., priority 2021, published 2024)",
  "tested_on": "coronal proteins on NPs",
  "parameters": "species or system mouse",
  "conditions": "for V5 Sera_Nanoparticles Quantitative Value (Normalized Total Spectra): HBPE-NPs incubated 1 h with IAV day 5 (V5) mouse sera, 20:1 NP:sera, centrifuged and washed; for V5 Sera Alone (Control) Quantitative Value (Normalized Total Spectra): IAV day 5 (V5) mouse sera alone, no NPs (sera-only control)",
  "data": [
    {"molecule": "Ig gamma-2B chain C region (protein, UniProt P01867 1-404, looked up) Immunoglobulin heavy constant …: KTTPPSVYPLAPGCGDTTGSSVTLGCLVKGYFPESVTVTWNSGSLSSSVHTFPALLQSGLYTMSSSVTVPSSTWPSQTVTCSVAHPASSTTVDKKLEPSGPISTINPCPPCKECHKCPAPNLEGGPSVFIFPPNIKDVLMISLTPKVTCVVVDVSEDDPDVQISWFVNNVEVHTAQTQTHREDYNSTIRVVSTLPIQHQDWMSGKEFKCKVNNKDLPSPIERTISKIKGLVRAPQVYILPPPAEQLSRKDVSLTCLVVGFNPGDISVEWTSNGHTEENYKDTAPVLDSDGSYFIYSKLNMKTSKWEKTDSFSCNVRHEGLKNYYLKKTISRSPGLDLDDICAEAKDGELDGLWTTITIFISLFLLSVCYSASVTLFKVKWIFSSVVELKQKISPDYRNMIGQGA", "values": [
      {"measurement": "V5 Sera_Nanoparticles Quantitative Value (Normalized Total Spectra)", "result": 8.7034},
      {"measurement": "V5 Sera Alone (Control) Quantitative Value (Normalized Total Spectra)", "result": 10.178}
    ]},
    {"molecule": "Fetuin-B (protein, UniProt Q9QXC1 19-388, looked up) Fetuin-B: RSPPAPPLPQRPLSPLHPLGCNDSEVLAVAGFALQNINRDQKDGYMLSLNRVHDVREHYQEDMGSLFYLTLDVLETDCHVLSRKAQKDCKPRMFYESVYGQCKAMFHINKPRRVLYLPAYNCTLRPVSKRKTHTTCPDCPSPIDLSNPSALEAATESLAKFNSKSPSKKYELVKVTKAMNQWVSGPAYYVEYLIKEAPCTKSQASCSLQHSDSEPVGICQGSTVQSSLRHVPLIQPVEKSVTVTCEFFESQAQVPGDENPAVTQGPQKLPQKNTAPTSSPSVTAPRGSIQHLPELDDEKPEESKGGSPEEAFPVQLDLTTNPQGDTLDVSFLYLEPGDKKLVVLPFPGKEQRSAECPGPEKENNPLVLPP", "values": [
      {"measurement": "V5 Sera_Nanoparticles Quantitative Value (Normalized Total Spectra)", "result": 8.7034},
      {"measurement": "V5 Sera Alone (Control) Quantitative Value (Normalized Total Spectra)", "result": 10.178}
    ]},
    {"molecule": "Apolipoprotein M (protein, UniProt Q9Z1R3 1-190, looked up) Apolipoprotein M: MFHQVWAALLSLYGLLFNSMNQCPEHSQLTALGMDDTETPEPHLGLWYFIAGAASTTEELATFDPVDNIVFNMAAGSAPRQLQLRATIRTKSGVCVPRKWTYRLTEGKGNMELRTEGRPDMKTDLFSSSCPGGIMLKETGQGYQRFLLYNRSPHPPEKCVEEFQSLTSCLDFKAFLVTPRNQEACPLSSK", "values": [
      {"measurement": "V5 Sera_Nanoparticles Quantitative Value (Normalized Total Spectra)", "result": 10.879},
      {"measurement": "V5 Sera Alone (Control) Quantitative Value (Normalized Total Spectra)", "result": 6.4766}
    ]},
    {"molecule": "Gelsolin (protein, UniProt P13020 26-780, looked up) Gelsolin: ATTSRGRAQERAPQSRVSEARPSTMVVEHPEFLKAGKEPGLQIWRVEKFDLVPVPPNLYGDFFTGDAYVILKTVQLRNGNLQYDLHYWLGNECSQDESGAAAIFTVQLDDYLNGRAVQHREVQGFESSTFSGYFKSGLKYKKGGVASGFKHVVPNEVVVQRLFQVKGRRVVRATEVPVSWDSFNNGDCFILDLGNNIYQWCGSGSNKFERLKATQVSKGIRDNERSGRAQVHVSEEGGEPEAMLQVLGPKPALPEGTEDTAKEDAANRRLAKLYKVSNGAGSMSVSLVADENPFAQGALRSEDCFILDHGRDGKIFVWKGKQANMEERKAALKTASDFISKMQYPRQTQVSVLPEGGETPLFKQFFKNWRDPDQTDGPGLGYLSSHIANVERVPFDAATLHTSTAMAAQHGMDDDGTGQKQIWRIEGSNKVPVDPATYGQFYGGDSYIILYNYRHGGRQGQIIYNWQGAQSTQDEVAASAILTAQLDEELGGTPVQSRVVQGKEPAHLMSLFGGKPMIIYKGGTSRDGGQTAPASIRLFQVRASSSGATRAVEVMPKSGALNSNDAFVLKTPSAAYLWVGAGASEAEKTGAQELLKVLRSQHVQVEEGSEPDAFWEALGGKTAYRTSPRLKDKKMDAHPPRLFACSNRIGRFVIEEVPGELMQEDLATDDVMLLDTWDQVFVWVGKDSQEEEKTEALTSAKRYIETDPANRDRRTPITVVRQGFEPPSFVGWFLGWDDNYWSVDPLDRALAELAA", "values": [
      {"measurement": "V5 Sera_Nanoparticles Quantitative Value (Normalized Total Spectra)", "result": 9.7913},
      {"measurement": "V5 Sera Alone (Control) Quantitative Value (Normalized Total Spectra)", "result": 16.654}
    ]},
    {"molecule": "Sulfhydryl oxidase 1 (protein, UniProt Q8BND5 33-748, looked up) Sulfhydryl oxidase 1: ARLSVLYSSSDPLTLLDADSVRPTVLGSSSAWAVEFFASWCGHCIAFAPTWKELANDVKDWRPALNLAVLDCAEETNSAVCREFNIAGFPTVRFFQAFTKNGSGATLPGAGANVQTLRMRLIDALESHRDTWPPACPPLEPAKLNDIDGFFTRNKADYLALVFEREDSYLGREVTLDLSQYHAVAVRRVLNTESDLVNKFGVTDFPSCYLLLRNGSVSRVPVLVESRSFYTSYLRGLPGLTRDAPPTTATPVTADKIAPTVWKFADRSKIYMADLESALHYILRVEVGKFSVLEGQRLVALKKFVAVLAKYFPGQPLVQNFLHSINDWLQKQQKKRIPYSFFKAALDSRKEDAVLTEKVNWVGCQGSEPHFRGFPCSLWVLFHFLTVQANRYSEAHPQEPADGQEVLQAMRSYVQFFFGCRDCADHFEQMAAASMHQVRSPSNAILWLWTSHNRVNARLSGALSEDPHFPKVQWPPRELCSACHNELNGQVPLWDLGATLNFLKAHFSPANIVIDSSASRHTGRRGSPEATPELVMDTLKLESRNSVLGHEQAASAESPGATALDVPAEKPEASGPQELYTGLRMGGASPGQGPPERMEDHQRDMQENAPGQQHLSKRDTEALFLPEVNHLQGPLELRRGGRSPKQLAPILEEEPEALAIQGQGQWLQVLGGGISHLDISLCVGLYSVSFMGLLAMYTYFRARLRTPKGHASYPTA", "values": [
      {"measurement": "V5 Sera_Nanoparticles Quantitative Value (Normalized Total Spectra)", "result": 9.7913},
      {"measurement": "V5 Sera Alone (Control) Quantitative Value (Normalized Total Spectra)", "result": 6.4766}
    ]},
    {"molecule": "Serum amyloid P-component (protein, UniProt P12246 21-224, looked up) Serum amyloid P-component: QTDLKRKVFVFPRESETDHVKLIPHLEKPLQNFTLCFRTYSDLSRSQSLFSYSVKGRDNELLIYKEKVGEYSLYIGQSKVTVRGMEEYLSPVHLCTTWESSSGIVEFWVNGKPWVKKSLQREYTVKAPPSIVLGQEQDNYGGGFQRSQSFVGEFSDLYMWDYVLTPQDILFVYRDSPVNPNILNWQALNYEINGYVVIRPRVWD", "values": [
      {"measurement": "V5 Sera_Nanoparticles Quantitative Value (Normalized Total Spectra)", "result": 10.879},
      {"measurement": "V5 Sera Alone (Control) Quantitative Value (Normalized Total Spectra)", "result": 4.6261}
    ]},
    {"molecule": "Complement component C8 alpha chain (protein, UniProt Q8K182 31-587, looked up) Complement component C8 alpha …: AVTPQAVSCQLSDWYKWTDCFPCQDKKYRYRSLLQPSKFGGTICSGDIWDEASCDSPTPCLRQAQCGQDFQCRETGRCLKRHLVCNGDNDCLDGSDESDCEDVRVTEDDCHQYEPIPGSERAALGYNILTQEEAQSVYDAKYYGGQCETVYNGDWRKLRYDPTCERLYYGEDEKYFRKPYNFLKYHFEALADTSISSEFYDDANDLFFHIKNGKSHSAGVTVGVAPVKSPVSIEVTGSGSKASSFLNKLNKYNEKRYGFMRVSTKIQTAQFKMRRNNIVLDEGMLQSLMELPEQFNYGMYAKFINDYGTHYITSGTMGGIYEYVMVLDKEKMKTEGTTVDEVQKCIGGGIGIGIKDSTIEGVGISGEFCENSGDGDRDIRKKITGVEDIISRVQGGSSVWGSVLTHNSSAITYQSWGRSLKYNPVVIDFEMQPIYQLLRHTNLGPLETKRQNLRRALDQYLMEFNACRCGPCFNNGEPILDGTNCRCQCSMGRQGLACERTVIEGLKDFKAAGHWSCWSSWSECRGGSQERRRQCNNPPPKNGGTPCLGRNLQTQAC", "values": [
      {"measurement": "V5 Sera_Nanoparticles Quantitative Value (Normalized Total Spectra)", "result": 8.7034},
      {"measurement": "V5 Sera Alone (Control) Quantitative Value (Normalized Total Spectra)", "result": 3.7009}
    ]},
    {"molecule": "Antithrombin-III (protein, UniProt P32261 33-465, looked up) Antithrombin-III: HGNPVDDICIAKPRDIPVNPLCIYRSPGKKATEEDGSEQKVPEATNRRVWELSKANSRFATNFYQHLADSKNDNDNIFLSPLSISTAFAMTKLGACNDTLKQLMEVFKFDTISEKTSDQIHFFFAKLNCRLYRKANKSSDLVSANRLFGDKSLTFNESYQDVSEVVYGAKLQPLDFKENPEQSRVTINNWVANKTEGRIKDVIPQGAINELTALVLVNTIYFKGLWKSKFSPENTRKEPFYKVDGQSCPVPMMYQEGKFKYRRVAEGTQVLELPFKGDDITMVLILPKPEKSLAKVEQELTPELLQEWLDELSETMLVVHMPRFRTEDGFSLKEQLQDMGLIDLFSPEKSQLPGIVAGGRDDLYVSDAFHKAFLEVNEEGSEAAASTSVVITGRSLNPNRVTFKANRPFLVLIREVALNTIIFMGRVANPCVN", "values": [
      {"measurement": "V5 Sera_Nanoparticles Quantitative Value (Normalized Total Spectra)", "result": 9.7913},
      {"measurement": "V5 Sera Alone (Control) Quantitative Value (Normalized Total Spectra)", "result": 11.103}
    ]},
    {"molecule": "Alpha-1B-glycoprotein (protein, UniProt Q19LI2 19-512, looked up) Alpha-1B-glycoprotein: NTLMLDSGSEPKLWAEPQSLLEPWANLTLVCAVDLPTKVFELIQNGWFLSQVRLETQVLSYRFSLGAITSNNSGIYRCRCGVEPPVDIHLPALNKWTMLSNAVEVTGKEPLPRPLAHADPVDWITPGGLPVYVMCQVAMRGVTYLLRQEGVDGVQKPDVQHKGTAGFLIYKPGNYSCSYLTHAAGEPSEPSDIVTIKMYASQAPPTLCLMGNYLMIYPQKTYETLACKAPRNAAEFQLRQGGKVLKIHGFSPTRDAILYYVNLKELDNPGPFTCRYRMHKYMHVWSEDSKPVELMWSDETLQAPVLTAEPSSRDLEPGSTVQLRCTAPVSGLRFGLQRQGKPELVVVQMLNSSGTEAVFELHNISTIDSGNYSCIYMEQAPPFSGSSSSEPVELRVNGPPPKPRLEALWKSTVHLGQEAIFRCHGHVPRVSMELVREGFKTPFAVASTRSTSAYLKLLFVGPQHAGNYSCRYTALPPFTFESGISDPVEVIVEG", "values": [
      {"measurement": "V5 Sera_Nanoparticles Quantitative Value (Normalized Total Spectra)", "result": 9.7913},
      {"measurement": "V5 Sera Alone (Control) Quantitative Value (Normalized Total Spectra)", "result": 6.4766}
    ]},
    {"molecule": "Properdin (protein, UniProt P11680 23-464, looked up) Properdin: SDPVLCFTQYEESSGRCKGLLGRDIRVEDCCLNAAYAFQEHDGGLCQACRSPQWSAWSLWGPCSVTCSEGSQLRHRRCVGRGGQCSENVAPGTLEWQLQACEDQPCCPEMGGWSEWGPWGPCSVTCSKGTQIRQRVCDNPAPKCGGHCPGEAQQSQACDTQKTCPTHGAWASWGPWSPCSGSCLGGAQEPKETRSRSCSAPAPSHQPPGKPCSGPAYEHKACSGLPPCPVAGGWGPWSPLSPCSVTCGLGQTLEQRTCDHPAPRHGGPFCAGDATRNQMCNKAVPCPVNGEWEAWGKWSDCSRLRMSINCEGTPGQQSRSRSCGGRKFNGKPCAGKLQDIRHCYNIHNCIMKGSWSQWSTWSLCTPPCSPNATRVRQRLCTPLLPKYPPTVSMVEGQGEKNVTFWGTPRPLCEALQGQKLVVEEKRSCLHVPVCKDPEEKKP", "values": [
      {"measurement": "V5 Sera_Nanoparticles Quantitative Value (Normalized Total Spectra)", "result": 8.7034},
      {"measurement": "V5 Sera Alone (Control) Quantitative Value (Normalized Total Spectra)", "result": 8.327}
    ]},
    {"molecule": "CD5 antigen-like (protein, UniProt Q9QWK4 22-352, looked up) CD5 antigen-like: ESPTKVQLVGGAHRCEGRVEVEHNGQWGTVCDDGWDRRDVAVVCRELNCGAVIQTPRGASYQPPASEQRVLIQGVDCNGTEDTLAQCELNYDVFDCSHEEDAGAQCENPDSDLLFIPEDVRLVDGPGHCQGRVEVLHQSQWSTVCKAGWNLQVSKVVCRQLGCGRALLTYGSCNKNTQGKGPIWMGKMSCSGQEANLRSCLLSRLENNCTHGEDTWMECEDPFELKLVGGDTPCSGRLEVLHKGSWGSVCDDNWGEKEDQVVCKQLGCGKSLHPSPKTRKIYGPGAGRIWLDDVNCSGKEQSLEFCRHRLWGYHDCTHKEDVEVICTDFDV", "values": [
      {"measurement": "V5 Sera_Nanoparticles Quantitative Value (Normalized Total Spectra)", "result": 9.7913},
      {"measurement": "V5 Sera Alone (Control) Quantitative Value (Normalized Total Spectra)", "result": 9.2523}
    ]}
  ]
}
